According to patent US20080003660A1, “Use of fast-release pristinamycin-type and polyether ionophore type antimicrobial agents in the production of ethanol” (priority 2006, published 2008):

Test: residual antimicrobial in DDG samples from 8 major ethanol producers

For virginiamycin, the “virginiamycin detected in DDG” value (unvalidated experimental analytical procedure) was < 1 ppb and the “virginiamycin detected in DDG” value (validated Eurofins analysis) was < 1 ppm.
